Reference: publication PMC6270409, “Synthesis and Anti-Influenza Virus Activities of a Novel Class of Gastrodin Derivatives” (Molecules, 2013)

How the values were obtained:
[1] = system: influenza B (B/Jifang/13/97); test: Anti-influenza CPE assay in MDCK cells, oseltamivir-null B/Jifang/13/97; assay type: cell-based, influenza B virus
[2] = system: influenza A/Hanfang/359/95(H3N2); assay type: cell-based, influenza A virus
[3] = system: influenza A/FM/1/47(H1N1); assay type: cell-based, influenza A virus

Compound | SI A/FM/1/47 ([3]; TC50/IC50) | SI A/Hanfang/359/95 ([2]; TC50/IC50) | other results
COC(=O)c1ccc(F)c(O[C@@H]2O[C@H](COC(C)=O)[C@@H](OC(C)=O)[C@H](OC(C)=O)[C@H]2OC(C)=O)c1 [Compound 1a, Methyl 4-fluoro-3-((2S,3R,4S,5R,6R)-3,4,5-triacetoxy-6-(acetoxymethyl)-tetrahydro-2H-pyran-2-yloxy)benzoate] |  |  | SI B/Jifang/13/97 [1]: 6.14; SI A/Hanfang/359/95 [2]: 4.3; SI A/FM/1/47 [3]: 5.6
COC(=O)c1c(OC)cc(O[C@@H]2O[C@H](COC(C)=O)[C@@H](OC(C)=O)[C@H](OC(C)=O)[C@H]2OC(C)=O)cc1OC [Compound 2a, Methyl 2,6-dimethoxy-4-((2S,3R,4S,5R,6R)-3,4,5-triacetoxy-6-(acetoxymethyl)-tetrahydro-2H-pyran-2-yloxy)benzoate] | 2.0 |  | SI B/Jifang/13/97 ([1]; TC50/IC50): 3.94
COC(=O)c1ccc(N)c(O[C@@H]2O[C@H](COC(C)=O)[C@@H](OC(C)=O)[C@H](OC(C)=O)[C@H]2OC(C)=O)c1 [Compound 4a, Methyl 4-amino-3-((2S,3R,4S,5R,6R)-3,4,5-triacetoxy-6-(acetoxymethyl)-tetrahydro-2H-pyran-2-yloxy)benzoate] | >3.4 |  | 
COC(=O)c1ccc(O[C@@H]2O[C@H](COC(C)=O)[C@H](OC(C)=O)[C@H](OC(C)=O)[C@H]2OC(C)=O)c(F)c1 [Compound 7b, Methyl 3-fluoro-4-((2S,3R,4S,5S,6R)-3,4,5-triacetoxy-6-(acetoxymethyl)-tetrahydro-2H-pyran-2-yloxy)benzoate] | >3.0 |  | 
COC(=O)c1c(F)cccc1O[C@@H]1O[C@H](COC(C)=O)[C@@H](OC(C)=O)[C@H](OC(C)=O)[C@H]1OC(C)=O [Compound 9a, Methyl 2-fluoro-6-((2S,3R,4S,5R,6R)-3,4,5-triacetoxy-6-(acetoxymethyl)-tetrahydro-2H-pyran-2-yloxy)benzoate] | >11.6 |  | 
COC(=O)c1c(F)cccc1O[C@@H]1O[C@H](COC(C)=O)[C@H](OC(C)=O)[C@H](OC(C)=O)[C@H]1OC(C)=O [Compound 9b, Methyl 2-fluoro-6-((2S,3R,4S,5S,6R)-3,4,5-triacetoxy-6-(acetoxymethyl)-tetrahydro-2H-pyran-2-yloxy)benzoate] | 6.0 |  | 
CC(=O)OC[C@H]1O[C@@H](Oc2cccc(F)c2C)[C@H](OC(C)=O)[C@@H](OC(C)=O)[C@H]1OC(C)=O [Compound 10b, (2R,3S,4S,5R,6S)-2-(Acetoxymethyl)-6-(3-fluoro-2-methylphenoxy)-tetrahydro-2H-pyran-3,4,5-triyl triacetate] |  | 5.2 | SI B/Jifang/13/97 ([1]; TC50/IC50): 6.80
CC(=O)OC[C@H]1O[C@@H](Oc2ccncc2)[C@H](OC(C)=O)[C@@H](OC(C)=O)[C@@H]1OC(C)=O [Compound 11a, (2R,3R,4S,5R,6S)-2-(Acetoxymethyl)-6-(pyridin-4-yloxy)-tetrahydro-2H-pyran-3,4,5-triyl triacetate] | 4.3 | 5.6 | 
CC(=O)OC[C@H]1O[C@@H](Oc2ncccc2F)[C@H](OC(C)=O)[C@@H](OC(C)=O)[C@@H]1OC(C)=O [Compound 12a, (2R,3R,4S,5R,6S)-2-(Acetoxymethyl)-6-(3-fluoropyridin-2-yloxy)-tetrahydro-2H-pyran-3,4,5-triyl triacetate] | 13.9 |  | 
CCOC(=O)C1=C[C@@H](OC(CC)CC)[C@H](NC(C)=O)[C@@H](N)C1 [Oseltamivir, reference compound] | 70.1 | 1938.5 | 
Ethyl 4-fluoro-2-((2S,3R,4S,5R,6R)-3,4,5-triacetoxy-6-(acetoxymethyl)-tetrahydro-2H-pyran-2-yloxy)-benzoate [Compound 8a] | 3.3 | 6.2 | 
Methyl 4-((2S,3R,4S,5R,6R)-3,4,5-triacetoxy-6-(acetoxymethyl)-tetrahydro-2H-pyran-2-yloxy)benzoate [Compound 5a] |  | 2.5 | 

Where two headings read alike, the source gives them in different places.
